Test system: RPMI 8322 human melanoma cells
Assay: Cell viability (CellTiter 96 dye conversion assay)
Assay type: cell-based
Conditions: read-out: µM to 50% cell viability; RPMI 8322 cells, 4 days with compound, 1µM to 10mM, 1% DMSO, triplicate

## NCCOP(=O)(N(CCCl)CCCl)N(CCCl)CCCl
  IC50: > 500 µM
